Results of unrelated studies side by side (data: NIAID ChemDB).

All rows: whole-cell or culture tests; organism: HIV-1; method: RT activity; measure: EC50

An empty or dashed field is not shown. Conditions beyond the fields shown may differ between rows. ECn: concentration that inhibits the pathogen or its effect by n%.

structure,strain,setting,mutations,cells,value
Nc1ccn([C@H]2CC[C@@H](CO)O2)c(=O)n1,HXB2D,,,CBMC,0.041 µM
CO[C@H]1O[C@@H](n2ccc(=O)[nH]c2=O)C[C@@H]1N=[N+]=[N-],PD165BC(RT-L92I),,RT-L92I,MT-2,0.84 µM
Cc1cc(C)cc(C(=O)c2cc(Cl)ccc2OCCN2C(=O)NC(=O)C(C)C2C)c1,,pseudotyped,K103N + Y181C,,3.6 µM
CCc1nc2sccn2c1C(=O)c1ccco1,,,,U1,>100 µM
Nc1nc(=O)n([C@H]2CC[C@@H](CO)O2)cc1F,LAI,,,PBMC,0.019 µM
O=c1[nH]cnc2c1ncn2[C@H]1CC[C@@H](CO)O1,HXB2D,,,MT-4,0.53 µM
CCCc1cc(=O)oc2c3c(c4c(c12)OC(C)(C)C=C4)O[C@H](C)[C@@H](C)[C@@H]3O,CLADE C,,,PBMC,0.02 µM
Cc1cn([C@H]2C[C@H](N=[N+]=[N-])[C@@H](COP(=O)(O)OC[C@H]3OC(O)[C@H](O)[C@@H](O)[C@@H]3O)O2)c(=O)[nH]c1=O,LAV-Bru,15 d,,CEM,<0.2 µM
CC(C)(C)NC(=O)[C@@H]1CN(Cc2cccnc2)CCN1C[C@@H](O)C[C@@H](Cc1ccccc1)C(=O)N[C@H]1c2ccccc2C[C@H]1O,RF,,,MT-2,0.0162 µM
O=c1[nH]cnc2c1ncn2[C@H]1CC[C@@H](CO)O1,HXB2D,,,MT-4,7.8 µM
CC(C)c1nc(CN(C)C(=O)N[C@H](C(=O)N[C@@H](Cc2ccccc2)C[C@H](O)[C@H](Cc2ccccc2)NC(=O)OCc2cncs2)C(C)C)cs1,BRU,,,MT-2,0.129 µM
Nc1ccn([C@@H]2CS[C@H](CO)O2)c(=O)n1,52534-2 NRTI resistant recombinant,,RT-M41L T69ins L74V M184V L210W T215Y,PBMC,>10 µM
CCCc1cc(=O)oc2c3c(c4c(c12)OC(C)(C)C=C4)O[C@@H](C)[C@H](C)[C@@H]3O,CLADE D,,,PBMC,0.2 µM
COC(=O)[C@H](C)NP(=O)(OC[C@@H]1C=C[C@H](n2cc(C)c(=O)[nH]c2=O)O1)Oc1ccc(Br)cc1,1617-1 NRTI resistant recombinant,,RT-T69K K70G V75I F77L F116Y Q151M M184V,PBMC,0.0058 µM
CCCCCCCCCCCCCCCCOP(=O)(OC[C@H]1OC(O)[C@H](O)[C@@H](O)[C@@H]1O)OC[C@H]1O[C@@H](n2cc(C)c(=O)[nH]c2=O)C[C@@H]1N=[N+]=[N-],LAV-Bru,7 d,,PBL,<1 µM
Nc1nc(=O)n([C@H]2C[C@H](O)[C@@H](CO)O2)cc1-c1nccs1,IIIB,,,H9,>10 µg/mL
O=C1CCN(CCOc2ccc(Cl)cc2C(=O)c2cc(Cl)cc(Cl)c2)C(=O)N1,,pseudotyped,,,0.09 µM
Cc1ccnc2c1NC(=O)c1cccnc1N2C1CC1,CLADE E,,,PBMC,0.007 µM
Cn1cccc1-c1cn([C@H]2C[C@H](O)[C@@H](CO)O2)c(=O)nc1N,IIIB,,,H9,>10 µg/mL
Cc1cn([C@H]2C[C@H](N=[N+]=[N-])[C@@H](CO)O2)c(=O)[nH]c1=O,HII2-1,,,MT-2,0.03 µM
CCc1nc2ncccn2c1C(=O)c1ccco1,LAI,,,CEM + CEM-SS,>100 µM
Cc1cn([C@H]2C[C@H](N=[N+]=[N-])[C@@H](CO)O2)c(=O)[nH]c1=O,SLKA(SI),,,PBMC,0.02 µM
CC(C)=CCN1Cc2cc(Cl)cc3[nH]c(=S)n(c23)C[C@@H]1C,LAI,,,CEM + CEM-SS,0.12 µM
Cc1ccc(C(=O)OC[C@H]2O[C@@H](n3cc(-c4cccn4C)c(N)nc3=O)C[C@@H]2OC(=O)c2ccc(C)cc2)cc1,IIIB,,,H9,>10 µg/mL
Cc1cn([C@H]2C[C@H](N=[N+]=[N-])[C@@H](CO)O2)c(=O)[nH]c1=O,1617-1 NRTI resistant recombinant,,RT-T69K K70G V75I F77L F116Y Q151M M184V,PBMC,0.174 µM
Nc1nc(=O)n([C@@H]2CC[C@H](CO)O2)cc1F,BaL,,,Macrophage,0.00057 µM
CC(C)(C)NC(=O)[C@@H]1CN(Cc2cccnc2)CCN1C[C@@H](O)C[C@@H](Cc1ccccc1)C(=O)N[C@H]1c2ccccc2C[C@H]1O,4755-5 NRTI resistant recombinant,,RT-M41L E44D D67N T69D Y118I M184V L210W T215Y,PBMC,0.0048 µM
Nc1nc(=O)n([C@@H]2CO[C@H](CO)S2)cc1F,HXB2D(RT-M184I),,RT-M184I,MT-4,27 µM
Cc1c(O)cccc1C(=O)N[C@@H](CSc1ccccc1)[C@H](O)CN1C[C@H]2CCCC[C@H]2C[C@H]1C(=O)NC(C)(C)C,RF,,,CEM + CEM-SS,0.0179 µM
CCc1nc2sccn2c1C(=O)c1ccc(O)cc1,IIIB,,,MT-4,>42 µM
Cc1cn([C@H]2C[C@H](N=[N+]=[N-])[C@@H](CO)O2)c(=O)[nH]c1=O,LAV-Bru,11 d,,U-937,>25 µM
CC(C)=CCN1Cc2cccc3[nH]c(=S)n(c23)C[C@@H]1C,PDBC,,,MT-2,0.26 µM
Cc1cn([C@H]2C[C@H](N=[N+]=[N-])[C@@H](CO)O2)c(=O)[nH]c1=O,4205(RT-M184V),,RT-M184V,CBMC,0.007 µM
Nc1nc(=O)n([C@H]2C[C@H](O)[C@@H](CO)O2)cc1-c1ccccc1,IIIB,,,H9,>10 µg/mL

A second listing of 4 rows from above:

structure	strain	setting	mutations	cells	value
CCc1nc2ncccn2c1C(=O)c1ccco1	LAI			CEM + CEM-SS	>100 µM
CO[C@H]1O[C@@H](n2ccc(=O)[nH]c2=O)C[C@@H]1N=[N+]=[N-]	PD165BC(RT-L92I)		RT-L92I	MT-2	0.84 µM
CC(C)(C)NC(=O)[C@@H]1CN(Cc2cccnc2)CCN1C[C@@H](O)C[C@@H](Cc1ccccc1)C(=O)N[C@H]1c2ccccc2C[C@H]1O	4755-5 NRTI resistant recombinant		RT-M41L E44D D67N T69D Y118I M184V L210W T215Y	PBMC	0.0048 µM
Cc1cn([C@H]2C[C@H](N=[N+]=[N-])[C@@H](CO)O2)c(=O)[nH]c1=O	HII2-1			MT-2	0.03 µM